Anti-infective test results gathered from many reports (values: NIAID ChemDB through PubChem).

Shared fields: growth or infection tests; species: Cryptococcus neoformans

Blank or dashed fields: not listed here. A number after MIC or MFC names an inhibition level or a share of isolates. Rows are shuffled and stem from different studies.

| SMILES | strain or isolate | endpoint | method | value |
|---|---|---|---|---|
| CCCCCCCCCCCCCC(=O)NC(CCCN)C(=O)NC(CCCN)C(=O)NC(CCCN)C(=O)NC(CCCN)C(N)=O | ATCC 2344 | MIC | broth dilution | 12.5 µg/mL |
| Cc1ccc(N2C(=O)[C@@H](O)[C@H]2/C=C/c2ccccc2)cc1 | AH27/A | MIC |  | 5.37 µM |
| COc1ccc2c(c1)C1=C(CS2)C(c2ccc3c(c2)OCO3)C(C#N)=C(N)O1 | 25 | MIC |  | 3 µg/mL |
| Cc1cc(-c2cc(C)n(CCO)n2)no1 |  | MFC |  | >200 µM |
| CCCCCCCCCCCCCCCCCC(=O)NC(CCCN)C(N)=O | ATCC 2344 | MIC | broth dilution | >100 µg/mL |
| COc1nc2c(c(-c3ccccc3)c1C#N)CSc1ccccc1-2 | 93/V | MIC |  | 50 µg/mL |
| Oc1ccccc1N=Cc1ccc(F)cc1 | 96806 | MIC | broth dilution | 5.7 µg/mL |
| O=C1/C(=C/c2ccccc2)CCc2ccccc21 | 25 | MIC |  | 25 µg/mL |
| CCOC(=O)c1sc(SC)cc1-c1ccc(Cl)cc1 | CN-17 | MIC |  | >100 µg/mL |
| O=C1/C(=C/c2ccc(O)cc2)COc2ccccc21 | Farwania | MIC |  | 6 µg/mL |
| CCOC(=O)c1c(C)nc(NCCCCNc2ccnc3cc(Cl)ccc23)nc1-c1ccccc1[N+](=O)[O-] | LMM 820 | MIC99 |  | 8 µg/mL |
| Cc1noc(NS(=O)(=O)c2ccc(N)cc2)c1C | IFM 51976 | MIC |  | 128 µg/mL |
| Oc1ccccc1N=Cc1cccc(O)c1O | C-3-1 | MIC | broth dilution | 2.8 µg/mL |
| CCC(C)n1ncn(-c2ccc(N3CCN(c4ccc(OC[C@H]5CO[C@](Cn6cncn6)(c6ccc(Cl)cc6Cl)O5)cc4)CC3)cc2)c1=O | 42 isolates (HIV+) | MIC90 |  | 0.25 µg/mL |
| Oc1cccc(C=Nc2ccccc2O)c1 | VM-MCMMPI | MIC99 |  | 4 µg/mL |
| O=C1/C(=C/c2ccc(Cl)cc2)CCc2ccccc21 | 93/V | MIC |  | 6 µg/mL |
| O=[N+]([O-])c1ccc(C=Nc2ccccc2O)cc1 | 96806 | MIC99 |  | 11.3 µg/mL |
| COC(=O)c1ccc(N2C(=O)C(OS(=O)(=O)c3ccc(C)cc3)C2c2ccc(OC)cc2)cc1 | AH27/A | MIC |  | 2.9 µM |
| OCC1c2ccccc2SC1c1ccccc1 | 93/V | MIC |  | 50 µg/mL |
| N#CC1=C(N)OC2=C(CSc3ccc(Cl)cc32)C1c1ccc2c(c1)OCO2 | 93/V | MIC |  | 12.5 µg/mL |
| CCCCOc1ccccc1N1CCN(CCc2nnnn2C(C)C(O)(Cn2cncn2)c2ccc(F)cc2F)CC1 | LA314 | MIC |  | 4 µg/mL |
| Cn1nc(Cc2ccc(Cl)cc2)c2ccccc2c1=O | Clinical isolate (IM 983036) | MIC | broth dilution | ≥250 µg/mL |
| CCCCn1nc(C)c(N=O)c1-c1cc(C)on1 |  | MIC |  | 2.4 µM |
| NCCNC(=O)C1=Nc2ccc(NC(=O)C3=Nc4ccc(C(=O)Nc5ccc6[nH]c(C(=O)NCCN)cc6c5)cc4C3)cc2C1 | Serotype C | MIC |  | 1 µg/mL |
| Nc1ccc(S(=O)(=O)Nc2ccnn2-c2ccccc2)cc1 | IFM 49722 | MIC |  | 8 µg/mL |
| Oc1ccc(O)c(C=Nc2ccccc2O)c1 | C-3-1 | MIC99 |  | 5.7 µg/mL |
| CN(C)c1ccc(C2Sc3ccccc3C2CO)cc1 | Farwania | MIC |  | 50 µg/mL |
| CCOC(=O)c1sc2cc(-c3ccc(F)cc3)oc(=O)c2c1N | CN-17 | MIC |  | >100 µg/mL |
| Cc1ccc(/C=C2\CCc3ccccc3C2=O)cc1 | Farwania | MIC |  | 100 µg/mL |
| CCCCCCCC(=O)OC1CCN(CC(O)(Cn2cncn2)c2ccc(F)cc2F)CC1 | BLS108 | MIC80 | broth dilution | 0.139 µM |
| C[C@H]1[C@H](O)[C@@H](C)/C=C/C=C/C=C/C=C/C=C/C=C/C=C/[C@H](O[C@@H]2O[C@H](C)[C@@H](O)[C@H](N)[C@@H]2O)C[C@@H]2O[C@](O)(C[C@@H](O)C[C@@H](O)CC[C@H](O)[C@@H](O)C[C@@H](O)CC(=O)O[C@H]1C)C[C@H](O)[C@H]2C(=O)O | 37 strains | MIC90 |  | 0.25 µg/mL |
| COc1nc2c(c(-c3ccc4ccccc4c3)c1C#N)CSc1ccc(Cl)cc1-2 | 25 | MIC |  | 25 µg/mL |
| CN[C@@H]1[C@H](O[C@@H]2OC[C@@H](O)[C@H](O)[C@H]2O)[C@@H](O)[C@H](O[C@H]2c3cc(C)c(C(=O)NCC(=O)O)c(O)c3-c3c(cc4c(c3O)C(=O)c3cc(OC)cc(O)c3C4=O)[C@@H]2O)O[C@@H]1CO | D49 | MIC |  | 1.6 µg/mL |
| O=C1C(O)C(c2ccccc2)N1c1ccccc1 | AH27/A | MIC |  | 52.29 µM |
| C[C@@H](n1cnc2cc(Cl)ccc2c1=O)[C@](O)(Cn1cncn1)c1ccc(F)cc1F | Isolate 125.96 | MFC |  | 20 µg/mL |
| Cc1nnc(NS(=O)(=O)c2ccc(N)cc2)s1 | IFM 40216 | MIC |  | ≥256 µg/mL |
| Cc1cc(-c2n[nH]c(C)c2N=O)no1 |  | MIC |  | 30 µM |
| C=C1CO[C@H]2[C@@H](C)OC(OC[C@@]34C[C@H]5[C@H](C)CC[C@@H]5[C@@]5(C=O)C[C@@H]3C=C(C(C)C)[C@@]45C(=O)O)C[C@@H]12 | 22 strains (serotype C) | MIC50 |  | 0.5 µg/mL |
| Cc1cc(NS(=O)(=O)c2ccc(N)cc2)nc(C)n1 | IFM 51976 | MIC |  | ≥256 µg/mL |
| CN[C@H]1CC[C@@H](c2ccc(Cl)c(Cl)c2)c2ccccc21 | 3-10 | MIC90 | broth dilution | 3 µg/mL |
| COc1cc(O)c2c(c1)C(=O)c1c(cc3c(c1O)-c1c(cc(C)c(C(=O)NC(C)C(=O)O)c1O)[C@H](OC1OC(C)C(N(C)C)C(OC4OCC(O)C(O)C4O)C1O)[C@H]3O)C2=O | IAM 4514 | MIC |  | 0.8 µg/mL |
| CCC(C)n1ncn(-c2ccc(N3CCN(c4ccc(OC[C@H]5CO[C@](Cn6cncn6)(c6ccc(Cl)cc6Cl)O5)cc4)CC3)cc2)c1=O | DUMC 251.86 | MIC |  | 0.016 µg/mL |
| CCCOc1nc2c(c(-c3ccc4c(c3)OCO4)c1C#N)CSc1ccc(Cl)cc1-2 | 25 | MIC |  | 25 µg/mL |
| O=C(Cc1ccccc1)OC1CCN(CC(O)(Cn2cncn2)c2ccc(F)cc2F)CC1 | BLS108 | MIC80 | broth dilution | 0.137 µM |
| Cc1cc(-c2c(N=O)c(C)nn2-c2ccccc2)no1 |  | MIC |  | 66 µM |
| N#Cc1ccc(/C=C/C(=O)OC2CCN(CC(O)(Cn3cncn3)c3ccc(F)cc3F)CC2)cc1 | BLS108 | MIC80 | broth dilution | 0.127 µM |
| COc1nc2c(c(-c3ccc(C)cc3)c1C#N)CSc1ccccc1-2 | 25 | MIC |  | 1.5 µg/mL |
| OCc1c(-c2ccc3c(c2)OCO3)sc2ccccc12 | Isolate 25 | MIC |  | 12.5 µg/mL |
| CCOC(=O)c1sc(SC)c(C(=O)OCC)c1O | CN-17 | MIC |  | >100 µg/mL |
| CCCCCCCCC(=O)OC1CCN(CC(O)(Cn2cncn2)c2ccc(F)cc2F)CC1 | BLS108 | MIC80 | broth dilution | 0.034 µM |
| OC(Cn1cncn1)(Cn1nnc(CCN2CCN(c3ccccn3)CC2)n1)c1ccc(F)cc1F | LA314 | MIC |  | >16 µg/mL |
| CCCCCCCCCC(=O)NC(CCCN)C(=O)NC(CCCN)C(=O)NC(CCCN)C(=O)NC(CCCN)C(N)=O | ATCC 2344 | MIC | broth dilution | 100 µg/mL |
| C[C@H](n1nnnc1CCN1CCN(c2ccc([N+](=O)[O-])cc2)CC1)[C@](O)(Cn1cncn1)c1ccc(F)cc1F | LA314 | MIC |  | 4 µg/mL |
| COc1ccc(-c2sc3ccccc3c2CO)c(O)c1 | 93/V | MIC |  | 50 µg/mL |
| C[C@@H]1CCC2(OC1)OC1CC3C4C[C@H](O)[C@H]5C[C@@H](O)CC[C@]5(C)C4CC(=O)[C@]3(C)C1[C@@H]2C | ATCC 90113 | MIC |  | 10 µg/mL |
| Oc1ccccc1N=Cc1ccc2c(c1)OCO2 | ATCC 28957 | MIC | broth dilution | 5.7 µg/mL |
| O=C1C(O)C(c2cccc3ccccc23)N1c1ccc(Br)cc1 | AH27/A | MIC |  | 154 µM |
| COc1ccc2c(c1)C(=O)/C(=C/c1ccc3c(c1)OCO3)CO2 | 93/V | MIC |  | 25 µg/mL |
| OCC1c2ccccc2SC1c1ccc(O)cc1O | 93/V | MIC |  | 50 µg/mL |
| Cc1cc(-c2cc(C)on2)n(CCO)n1 |  | MFC |  | >200 µM |
| O=C1/C(=C/c2ccc(Cl)cc2)CSc2ccccc21 | 93/V | MIC |  | 12.5 µg/mL |
| COc1ccc(C2Sc3ccccc3C2CO)c(O)c1 | 93/V | MIC |  | 100 µg/mL |
| NC(=O)C1=C(O)OC2=C(CSc3ccccc32)C1c1ccccc1 | 25 | MIC |  | 12.5 µg/mL |
| CN(C)c1ccc(-c2sc3ccccc3c2CO)cc1 | Farwania | MIC |  | 12.5 µg/mL |
| C[C@@H](n1ncn(-c2ccc(OCC(F)(F)C(F)F)cc2)c1=O)[C@](O)(Cn1cncn1)c1ccc(F)cc1F | DUMC 114.95 | MIC |  | ≤0.0313 µg/mL |
| CCOC(=O)c1sc2cc(-c3ccc([N+](=O)[O-])cc3)oc(=O)c2c1N | CN-17 | MIC |  | >100 µg/mL |
| COc1ccc(/C=C/C(=O)OC2CCN(CC(O)(Cn3cncn3)c3ccc(F)cc3F)CC2)cc1OC | BLS108 | MIC80 | broth dilution | 0.473 µM |
| Oc1ccccc1N=Cc1ccccc1 | F-10 | MIC99 |  | 5.7 µg/mL |
| CCCCCCCCCCCCCCCCCC(=O)NC(CCCN)C(=O)NC(CCCN)C(=O)NC(CCCN)C(=O)NC(CCCN)C(N)=O | ATCC 2344 | MIC | broth dilution | 6.25 µg/mL |
| CCn1nc(C)c(N)c1-c1cc(C)on1 |  | MFC |  | >200 µM |
| CCc1cc(C(C)(C)C)nc2c(NC(C)CCCN)cc(OC)c(Oc3cccc(C(F)(F)F)c3)c12 |  | MFC |  | 10 µg/mL |
| CCCCCCCCCCCCCCCC(=O)NC(CCCN)C(=O)NC(CCCN)C(=O)NC(CCCN)C(=O)NC(CCCN)C(N)=O | ATCC 2344 | MIC | broth dilution | 3.1 µg/mL |
| CCC(C)CC(C)CCCCCCCCC(=O)N[C@H]1C[C@@H](O)[C@H](NCCN)NC(=O)[C@@H]2[C@@H](O)CCN2C(=O)[C@H]([C@H](O)CCN)NC(=O)[C@H]([C@H](O)[C@@H](O)c2ccc(O)cc2)NC(=O)[C@@H]2C[C@@H](O)CN2C(=O)[C@H]([C@@H](C)O)NC1=O | 19 isolates | MIC |  | 0.5 µg/mL |
| CCCCCCCCCCCCCC(=O)NC(CCCN)C(=O)NC(CCCN)C(=O)NC(CCCN)C(N)=O | ATCC 2344 | MIC | broth dilution | 12.5 µg/mL |
| OC(CN1CCN(c2ccc(OCc3ccncc3)cc2)CC1)(Cn1cncn1)c1ccc(F)cc1F | S18012 | MIC80 |  | 0.5 µg/mL |
| CCCCCOc1ccc(-c2cc(-c3ccc(C(=O)N[C@H]4C[C@@H](O)[C@@H](O)NC(=O)[C@@H]5[C@@H](O)[C@@H](C)CN5C(=O)[C@H]([C@H](O)CC(N)=O)NC(=O)[C@H]([C@H](O)[C@@H](O)c5ccc(O)c(OS(=O)(=O)O)c5)NC(=O)[C@@H]5C[C@@H](O)CN5C(=O)[C@H]([C@@H](C)O)NC4=O)cc3)no2)cc1 | FMR 8393 | MIC |  | 64 µg/mL |
| O=C(/C=C/c1ccccc1)OC1CCN(CC(O)(Cn2cncn2)c2ccc(F)cc2F)CC1 | BLS108 | MIC80 | broth dilution | 0.033 µM |
| OC(Cn1cncn1)(Cn1cncn1)c1ccc(F)cc1F | TIMM0354 | MIC |  | 50 µg/mL |
| CCOC(=O)c1sc(SC)cc1-c1ccc(-c2cccnc2)cc1 | CN-17 | MIC |  | 50 µg/mL |
| OC(Cn1cncn1)(Cn1nnnc1CCN1CCN(c2ccccn2)CC1)c1ccc(F)cc1F | LA314 | MIC |  | >16 µg/mL |

The last 10 rows once more:

SMILES,strain or isolate,endpoint,method,value
CCc1cc(C(C)(C)C)nc2c(NC(C)CCCN)cc(OC)c(Oc3cccc(C(F)(F)F)c3)c12,,MFC,,10 µg/mL
CCCCCCCCCCCCCCCC(=O)NC(CCCN)C(=O)NC(CCCN)C(=O)NC(CCCN)C(=O)NC(CCCN)C(N)=O,ATCC 2344,MIC,broth dilution,3.1 µg/mL
CCC(C)CC(C)CCCCCCCCC(=O)N[C@H]1C[C@@H](O)[C@H](NCCN)NC(=O)[C@@H]2[C@@H](O)CCN2C(=O)[C@H]([C@H](O)CCN)NC(=O)[C@H]([C@H](O)[C@@H](O)c2ccc(O)cc2)NC(=O)[C@@H]2C[C@@H](O)CN2C(=O)[C@H]([C@@H](C)O)NC1=O,19 isolates,MIC,,0.5 µg/mL
CCCCCCCCCCCCCC(=O)NC(CCCN)C(=O)NC(CCCN)C(=O)NC(CCCN)C(N)=O,ATCC 2344,MIC,broth dilution,12.5 µg/mL
OC(CN1CCN(c2ccc(OCc3ccncc3)cc2)CC1)(Cn1cncn1)c1ccc(F)cc1F,S18012,MIC80,,0.5 µg/mL
CCCCCOc1ccc(-c2cc(-c3ccc(C(=O)N[C@H]4C[C@@H](O)[C@@H](O)NC(=O)[C@@H]5[C@@H](O)[C@@H](C)CN5C(=O)[C@H]([C@H](O)CC(N)=O)NC(=O)[C@H]([C@H](O)[C@@H](O)c5ccc(O)c(OS(=O)(=O)O)c5)NC(=O)[C@@H]5C[C@@H](O)CN5C(=O)[C@H]([C@@H](C)O)NC4=O)cc3)no2)cc1,FMR 8393,MIC,,64 µg/mL
O=C(/C=C/c1ccccc1)OC1CCN(CC(O)(Cn2cncn2)c2ccc(F)cc2F)CC1,BLS108,MIC80,broth dilution,0.033 µM
OC(Cn1cncn1)(Cn1cncn1)c1ccc(F)cc1F,TIMM0354,MIC,,50 µg/mL
CCOC(=O)c1sc(SC)cc1-c1ccc(-c2cccnc2)cc1,CN-17,MIC,,50 µg/mL
OC(Cn1cncn1)(Cn1nnnc1CCN1CCN(c2ccccn2)CC1)c1ccc(F)cc1F,LA314,MIC,,>16 µg/mL